Common to all, as to test: competition EMSA
Holding throughout (details): 25 mM MOPS pH 7.0, 0.2% Tween-20, 1 mM CaCl2, 2 mM DTT, 25 nM 32P-DNA, 37 C 10 min, then 0.2% glutaraldehyde 15 min, 8% TBE acrylamide gel, recombinant protein
In general terms: A gel shift assay detects complexes by their altered migration in electrophoresis.

For data set [1], the target named is T1, LiRad51-3 (Leishmania infantum) (UniProt E9AHR7).
T1 sequence (looked up, limits assumed): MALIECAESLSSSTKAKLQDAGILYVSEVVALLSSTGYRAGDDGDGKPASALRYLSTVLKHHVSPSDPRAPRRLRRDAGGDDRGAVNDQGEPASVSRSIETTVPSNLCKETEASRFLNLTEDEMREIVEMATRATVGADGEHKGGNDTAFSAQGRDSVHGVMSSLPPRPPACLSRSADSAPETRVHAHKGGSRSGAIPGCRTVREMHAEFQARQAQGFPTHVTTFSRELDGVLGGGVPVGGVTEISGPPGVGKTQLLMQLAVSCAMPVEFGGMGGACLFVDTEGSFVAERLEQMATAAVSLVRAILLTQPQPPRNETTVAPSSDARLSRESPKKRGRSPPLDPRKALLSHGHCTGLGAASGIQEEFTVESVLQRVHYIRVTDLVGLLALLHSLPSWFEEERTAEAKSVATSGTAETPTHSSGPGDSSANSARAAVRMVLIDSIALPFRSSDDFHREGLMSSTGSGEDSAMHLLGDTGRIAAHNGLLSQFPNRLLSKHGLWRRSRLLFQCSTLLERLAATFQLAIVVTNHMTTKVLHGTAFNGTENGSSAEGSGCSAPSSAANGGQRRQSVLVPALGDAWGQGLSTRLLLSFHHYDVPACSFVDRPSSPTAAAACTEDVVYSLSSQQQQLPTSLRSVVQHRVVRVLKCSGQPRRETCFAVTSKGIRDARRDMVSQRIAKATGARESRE

Data set [2] addresses T2, LiRad51-4 (Leishmania infantum) (UniProt A4HUT5).
T2 sequence (looked up, limits assumed): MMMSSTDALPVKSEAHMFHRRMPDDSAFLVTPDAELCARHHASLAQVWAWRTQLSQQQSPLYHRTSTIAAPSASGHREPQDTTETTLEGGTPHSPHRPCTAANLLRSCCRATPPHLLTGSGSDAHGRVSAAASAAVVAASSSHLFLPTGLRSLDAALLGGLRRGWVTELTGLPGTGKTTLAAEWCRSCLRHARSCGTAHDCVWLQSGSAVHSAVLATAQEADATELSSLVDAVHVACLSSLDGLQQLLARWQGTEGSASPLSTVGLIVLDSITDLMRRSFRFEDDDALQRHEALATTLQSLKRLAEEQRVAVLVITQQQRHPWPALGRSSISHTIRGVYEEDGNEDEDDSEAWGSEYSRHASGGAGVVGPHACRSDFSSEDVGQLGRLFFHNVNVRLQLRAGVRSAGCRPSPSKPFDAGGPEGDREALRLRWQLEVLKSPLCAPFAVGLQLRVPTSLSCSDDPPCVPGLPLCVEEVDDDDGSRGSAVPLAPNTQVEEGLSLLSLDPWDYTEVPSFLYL

Data set [3] deals with T3, LiRad51-6 (Leishmania infantum) (UniProt A4I499).
T3 sequence (looked up, limits assumed): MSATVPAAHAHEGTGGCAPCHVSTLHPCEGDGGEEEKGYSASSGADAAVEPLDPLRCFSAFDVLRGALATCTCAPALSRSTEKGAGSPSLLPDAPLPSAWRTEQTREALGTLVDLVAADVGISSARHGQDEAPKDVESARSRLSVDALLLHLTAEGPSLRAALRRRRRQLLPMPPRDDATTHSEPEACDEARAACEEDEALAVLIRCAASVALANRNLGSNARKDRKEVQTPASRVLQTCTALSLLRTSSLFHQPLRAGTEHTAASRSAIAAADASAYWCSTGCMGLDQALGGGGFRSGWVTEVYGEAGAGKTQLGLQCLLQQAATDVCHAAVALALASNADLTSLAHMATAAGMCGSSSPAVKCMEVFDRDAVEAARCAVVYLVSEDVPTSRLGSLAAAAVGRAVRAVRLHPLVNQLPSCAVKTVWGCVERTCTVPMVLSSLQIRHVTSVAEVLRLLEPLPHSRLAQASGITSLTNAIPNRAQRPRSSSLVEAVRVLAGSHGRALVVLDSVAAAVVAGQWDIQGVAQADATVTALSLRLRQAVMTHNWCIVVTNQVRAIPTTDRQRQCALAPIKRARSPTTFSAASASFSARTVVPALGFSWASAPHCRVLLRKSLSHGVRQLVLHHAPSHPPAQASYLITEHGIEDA

Setting [4] is: mixed with tailed DNA, label: 32P, single-stranded DNA.
Where [5] appears, read: mixed with ssDNA, 1 mM CaCl2, value given for tailed DNA, label: 32P on strand 1.

The exact form of at least one protein or probe is not confirmed. Weaker means in comparison with the reference protein, sequence or condition of that experiment. At least one verdict was read from the data and is not stated in words by the source. Tags and fusion partners may be left off the protein sequences shown.

Take “GGGCGAATTGGGCCCGACGTCGCATGCTCCTCTAGACTCGAGGAATTCGGTACCCCGGGTTCGAAATCGATAAGCTTACAGTCTCCATTTAAAGGACAAG [ssDNA of tailed-DNA competition (JYM696, inferred)]”: the binding result in data set [1] (setting [4]), in data set [2] (setting [4]) and in data set [3] (setting [4]) was “binds more weakly” throughout.

Regarding “GGGCGAATTGGGCCCGACGTCGCATGCTCCTCTAGACTCGAGGAATTCGGTACCCCGGGTTCGAAATCGATAAGCTTACAGTCTCCATTTAAAGGACAAG / CTTGTCCTTTAAATGGAGACTGTAAGCTTATCGATTTCGAACCCGGGGTA [5'-tailed DNA (JYM696/JYM697)]”, the binding signal (% bound at 100 nM) in data set [1] (setting [5]) stood at 70; in data set [2] (setting [5]), 40; in data set [3] (setting [5]), 70.

For the origin of these results see PMC4357719, “Roles of Rad51 paralogs for promoting homologous recombination in Leishmania infantum”.
